In ChEMBL document CHEMBL4513160, “CO-ADD screening of MMV (CH) - Small Polar Library”:

System: Pseudomonas aeruginosa
Settings: ATCC 27853, Concentration 300.0 ug.mL-1

`NC(CF)c1ccc(F)cc1` (stereo unspecified) was tested, and the inhibition was 18.9%.
